Test results: patent US20230175044
Where a protein sequence is shown, tags need not be part of it.

Biological target: T1, PstI (UniProt P00640)
T1 sequence (looked up, limits assumed): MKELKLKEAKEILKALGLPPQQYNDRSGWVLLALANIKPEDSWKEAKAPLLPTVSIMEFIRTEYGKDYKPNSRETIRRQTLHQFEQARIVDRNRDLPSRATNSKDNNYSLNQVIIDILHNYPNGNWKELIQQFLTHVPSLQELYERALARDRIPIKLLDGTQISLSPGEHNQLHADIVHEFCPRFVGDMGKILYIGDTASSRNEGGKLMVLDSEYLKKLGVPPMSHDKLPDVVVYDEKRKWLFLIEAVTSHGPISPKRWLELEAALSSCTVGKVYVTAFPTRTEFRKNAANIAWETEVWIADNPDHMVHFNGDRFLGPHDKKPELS
Experiment: enzyme reaction in vitro
Settings: electrochemical turn-on; PURExpress, 37 C; little crosstalk; protein translated in vitro; label: 3' methylene blue on reporter; only the site is given

In the case of “GTTCTGAAGCTCCTGCAGGTGACATGCCT (double strand) [PstI reporter/inhibitor duplex]”, the “activity on this sequence” value is reported as “active”.
